Measurements published in article PMC6780063 (Marine Drugs, 2019).

Sequences of proteins named here, by UniProt entry; tags and fusion partners are left off. A change or cut given only in a name is not applied to a line headed by its entry. Residues count along the entry.
UniProt P11230, 24-501 partner limits assumed: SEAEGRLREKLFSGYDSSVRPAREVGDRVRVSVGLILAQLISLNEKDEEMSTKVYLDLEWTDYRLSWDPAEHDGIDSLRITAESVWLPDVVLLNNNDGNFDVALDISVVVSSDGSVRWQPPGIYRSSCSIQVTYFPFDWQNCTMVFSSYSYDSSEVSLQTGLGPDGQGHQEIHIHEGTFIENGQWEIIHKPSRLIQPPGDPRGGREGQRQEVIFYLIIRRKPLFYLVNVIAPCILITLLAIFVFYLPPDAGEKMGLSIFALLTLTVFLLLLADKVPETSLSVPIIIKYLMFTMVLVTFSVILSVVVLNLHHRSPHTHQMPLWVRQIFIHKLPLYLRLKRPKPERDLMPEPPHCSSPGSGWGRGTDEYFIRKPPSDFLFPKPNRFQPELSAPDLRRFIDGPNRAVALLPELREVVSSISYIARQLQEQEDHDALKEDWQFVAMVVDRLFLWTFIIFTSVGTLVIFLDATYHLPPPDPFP
UniProt Q07001, 22-517 limits assumed: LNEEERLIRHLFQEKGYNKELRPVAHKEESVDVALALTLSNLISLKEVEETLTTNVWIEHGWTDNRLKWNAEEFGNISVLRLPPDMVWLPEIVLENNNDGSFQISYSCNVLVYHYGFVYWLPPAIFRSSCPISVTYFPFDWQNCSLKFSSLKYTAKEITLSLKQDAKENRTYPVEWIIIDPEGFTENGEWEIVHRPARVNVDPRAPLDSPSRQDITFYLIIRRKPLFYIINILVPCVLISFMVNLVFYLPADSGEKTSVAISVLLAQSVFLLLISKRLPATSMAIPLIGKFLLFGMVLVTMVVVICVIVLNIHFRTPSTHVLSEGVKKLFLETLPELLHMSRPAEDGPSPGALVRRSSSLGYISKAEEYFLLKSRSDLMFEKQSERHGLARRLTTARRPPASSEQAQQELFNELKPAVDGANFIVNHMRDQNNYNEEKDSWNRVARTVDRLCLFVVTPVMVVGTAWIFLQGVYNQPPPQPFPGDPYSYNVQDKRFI
UniProt P07510, 23-517 limits assumed: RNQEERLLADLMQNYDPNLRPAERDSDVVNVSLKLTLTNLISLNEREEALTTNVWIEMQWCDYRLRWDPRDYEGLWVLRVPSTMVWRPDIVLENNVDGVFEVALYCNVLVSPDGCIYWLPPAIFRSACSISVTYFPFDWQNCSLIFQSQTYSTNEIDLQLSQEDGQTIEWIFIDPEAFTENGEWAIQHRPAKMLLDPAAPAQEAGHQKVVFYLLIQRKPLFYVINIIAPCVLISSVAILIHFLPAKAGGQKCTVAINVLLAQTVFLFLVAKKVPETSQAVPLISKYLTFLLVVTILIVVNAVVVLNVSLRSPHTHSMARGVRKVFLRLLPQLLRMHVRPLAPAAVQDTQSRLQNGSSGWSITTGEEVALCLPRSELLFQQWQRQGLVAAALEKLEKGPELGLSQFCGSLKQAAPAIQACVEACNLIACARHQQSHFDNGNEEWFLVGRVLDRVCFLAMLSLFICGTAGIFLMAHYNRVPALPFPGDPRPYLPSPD

How the values were obtained:
[1] = target: α1β1δε nAChR (Homo sapiens, UniProt P02708+P11230+Q04844+Q07001)
[2] = target: α1β1γδ nAChR (Homo sapiens, UniProt P02708+P07510+P11230+Q07001); settings: read-out: IC50 α1β1γδ; fetal muscle type; TEVC, Xenopus laevis oocytes, holding -70 mV, 200 µM ACh, Hill fit, mean ± SEM, n ≥ 3

`C[C@@H]1NC(=O)[C@@H]2CCCN2C(=O)[C@H](Cc2c[nH]cn2)NC(=O)[C@@H]2CSSC[C@@H](C(N)=O)NC(=O)[C@H](CC(N)=O)NC(=O)[C@H](Cc3ccccc3)NC(=O)[C@H](CCCCN)NC(=O)[C@H](CCCCN)NC(=O)CNC(=O)[C@H](CSSC[C@H](NC(=O)[C@@H](N)CCCNC(=N)N)C(=O)N2)NC1=O` showed an IC50 [1] of 25 nM and an IC50 [2] of 16 nM.
